Pooled drug test results. Numbers come from NIAID ChemDB, via PubChem.

All rows: whole-cell or culture tests

Two numbers with a dash give a range or band.

compound | dose | strain | measure | setting | agent | method | value
Cc1ccc2oc(=O)n(-c3ccc(C(F)(F)F)cc3)c(=S)c2c1 | - | My 235/80 | MIC | 21 d | Mycobacterium kansasii | - | 32 µM
CC1(C)N=C(N)N=C(N)N1OCCCOc1cc(Cl)c(Cl)cc1Cl | - | 800 | MIC | - | Mycobacterium avium complex | - | 8 µg/mL
CCCCC(=O)O[C@H]1[C@H](C)[C@@H](O[C@@H]2O[C@H](C)C[C@H](N(C)C)[C@H]2O)C(C)(O)C[C@@H](C)/C(=N\OCCCOc2ccccc2)[C@H](C)[C@@H](O)[C@](C)(O)[C@@H](CC)OC(=O)[C@@H]1C | - | 20096 (clarithromycin-resistant) | MIC | - | Mycobacterium avium complex | - | 6.25 µg/mL
O=C(NNC(=O)c1ccncc1)Nc1ccc(Br)cc1Br | - | My 235/80 | MIC100 | 7 d | Mycobacterium kansasii | broth dilution | >125 µM
CCCCCCCCCCCCCCCCCCCOC(=O)NC(CCC(=O)O)(CCC(=O)O)CCC(=O)O | - | EO-P-1 | MIC | - | Mycobacterium chelonae | - | 5 µg/mL
Cc1ccn2c(C(=O)NCc3ccc(C4CCN(c5ccc(OCCF)cc5)CC4)c(F)c3)c(C)nc2c1 | 0.048 µM | - | inhibition | - | Mycobacterium avium | fluorescence | 85%
CO[C@H]1/C=C/O[C@@]2(C)Oc3c(C)c(O)c4c(O)c(c(/C=N/N5CCN(C6CCCC6)CC5)c(O)c4c3C2=O)NC(=O)/C(C)=C\C=C\[C@H](C)[C@H](O)[C@@H](C)[C@@H](O)[C@@H](C)[C@H](OC(C)=O)[C@@H]1C | - | LYN | MIC | - | Mycobacterium avium intracellulare | - | 2 µg/mL
CC[C@H]1OC(=O)[C@H](C)[C@@H](O[C@H]2C[C@@](C)(OC)[C@@H](O)[C@H](C)O2)[C@H](C)[C@@H](O[C@@H]2O[C@H](C)C[C@H](N(C)C)[C@H]2O)[C@](C)(O)C[C@@H](C)/C(=N\OC)[C@H](C)[C@@H](O)[C@]1(C)O | - | 20092 (clarithromycin-resistant) | MIC | - | Mycobacterium avium complex | - | >50 µg/mL
O=C(NNC(=O)c1ccncc1)Nc1ccc(F)c(Cl)c1 | - | My 235/80 | MIC100 | 14 d | Mycobacterium kansasii | broth dilution | >125 µM
CCCCCCCCCCCCCCCCCC(=O)NC(CCC(=O)O)(CCC(=O)O)CCC(=O)O | - | mc155 | MIC | - | Mycobacterium smegmatis | - | 27 µg/mL
CC(C)(C)c1ccc(NC(=O)NNC(=O)c2ccncc2)cc1 | - | My 6509/96 | MIC100 | 14 d | Mycobacterium kansasii | broth dilution | 62.5 µM
CCOc1ccc(-c2n[nH]c(C(F)(F)F)c2-c2ccc(Br)cc2)c(O)c1 | - | - | MIC | - | Mycobacterium marinum | visual reading | 50 µg/mL
CO[C@H]1/C=C/O[C@@]2(C)Oc3c(C)c(O)c4c(O)c(c5c(c4c3C2=O)NC2(CCN(CC(C)C)CC2)N=5)=NC(=O)/C(C)=C\C=C\[C@H](C)[C@H](O)[C@@H](C)[C@@H](O)[C@@H](C)[C@H](OC(C)=O)[C@@H]1C | - | N-919 (HIV-) | MIC | - | Mycobacterium avium intracellulare | - | 0.05 µg/mL
CCCCCCCCCCCCCCCCC(=O)NC(C)(CCC(=O)O)CCC(=O)O | - | EO-P-1 | MIC | - | Mycobacterium chelonae | - | 18 µg/mL
O=C(NCc1ccc(N2CCSCC2)cc1)c1c(Cl)nc2ccccn12 | - | - | MIC50 | - | Mycobacterium ulcerans | fluorescence | 0.1–1 µg/mL
CC[C@H]1OC(=O)[C@H](C)[C@@H](OC2C[C@@](C)(OC)[C@@H](OC(=O)c3ccccc3)[C@H](C)O2)[C@H](C)[C@@H](O[C@@H]2O[C@H](C)C[C@H](N(C)C)[C@H]2O)C(C)(O)C[C@@H](C)/C(=N\OCCCOc2ccccc2)[C@H](C)[C@@H](O)[C@]1(C)O | - | 20092 (clarithromycin-resistant) | MIC | - | Mycobacterium avium complex | - | 1.56 µg/mL
Cc1ccc(-n2c(=S)oc3ccc(F)cc3c2=S)cc1 | - | 6509/96 | MIC | 14 d | Mycobacterium kansasii | - | 2 µM
Fc1cc(Br)ccc1Nc1nnc(-c2ccncc2)o1 | - | My 6509/96 | MIC100 | 21 d | Mycobacterium kansasii | broth dilution | >125 µM
CC1(C)N=C(N)N=C(N)N1OCCCOc1cc(Cl)c(Cl)cc1Cl | - | DW19 | MIC | - | Mycobacterium avium complex | - | 0.5 µg/mL
CC[C@H]1OC(=O)[C@H](C)[C@@H](O[C@H]2C[C@@](C)(OC)[C@@H](O)[C@H](C)O2)[C@H](C)[C@@H](O[C@@H]2O[C@H](C)C[C@H](N(C)C)[C@H]2O)[C@](C)(OC)C[C@@H](C)C(=O)[C@H](C)[C@@H](O)[C@]1(C)O | - | N-259 (HIV-) | MIC | - | Mycobacterium avium complex | - | 1 µg/mL
C=C(C)COc1ccc(-c2n[nH]c(C(F)(F)F)c2-c2ccccc2OC)c(O)c1 | - | - | MIC | - | Mycobacterium marinum | visual reading | 50 µg/mL
NNC(=O)c1ccncc1 | - | N-319 (HIV-) | MIC | - | Mycobacterium avium complex | - | 2 µg/mL
COc1ccc2oc(=O)n(-c3ccc(Cl)cc3)c(=S)c2c1 | - | 6509/96 | MIC | 21 d | Mycobacterium kansasii | - | 16 µM
CCc1nc2ccc(Cl)cn2c1C(=O)NCc1ccc(-c2ccc(OC(F)(F)F)cc2)nc1 | 0.19 µM | - | inhibition | - | Mycobacterium avium | fluorescence | 85%
CCc1nc2ccc(Cl)cn2c1C(=O)NCc1ccc(OC(F)(F)F)cc1 | - | - | MIC50 | - | Mycobacterium ulcerans | fluorescence | 0.01–0.1 µg/mL
Cc1ccc2oc(=S)n(-c3ccc(Br)cc3)c(=S)c2c1 | - | My 235/80 | MIC | 21 d | Mycobacterium kansasii | - | 4 µM
CCCCCCCCCCC(CCCCCCCCCC)OC(=O)NC(CCC(=O)O)(CCC(=O)O)CCC(=O)O | - | AAy-P-1 | MIC | - | Mycobacterium abscessus | - | 18 µg/mL
COc1ccc(CNC(=O)c2c(Cl)nc3ccccn23)cc1 | - | - | MIC50 | - | Mycobacterium ulcerans | fluorescence | 0.01–0.1 µg/mL
CO[C@H]1/C=C/O[C@@]2(C)Oc3c(C)c(O)c4c(=O)c(c5oc6cc(N7CCN(CC(C)C)CC7)cc(=O)c6nc5c4c3=C2O)NC(=O)/C(C)=C\C=C\[C@H](C)[C@H](O)[C@@H](C)[C@@H](O)[C@@H](C)[C@H](OC(C)=O)[C@@H]1C | - | Isolate 94-886 | MIC | - | Mycobacterium ulcerans | - | 0.012 µg/mL
CO[C@@]1(NC(=O)Cc2cccs2)C(=O)N2C(C(=O)O)=C(COC(N)=O)CS[C@@H]21 | - | 1045 | MIC | - | Mycobacterium fortuitum | - | 50 µg/mL
CCOc1ccc(-c2n[nH]c(C(F)(F)F)c2-c2ccccc2)c(O)c1 | - | - | MIC | - | Mycobacterium marinum | visual reading | >50 µg/mL
CO[C@H]1/C=C/O[C@@]2(C)Oc3c(C)c(O)c4c(=O)c(c5oc6cc(N7CCN(CC(C)C)CC7)cc(=O)c6nc5c4c3=C2O)NC(=O)/C(C)=C\C=C\[C@H](C)[C@H](O)[C@@H](C)[C@@H](O)[C@@H](C)[C@H](OC(C)=O)[C@@H]1C | - | N-979 (HIV+) | MIC | - | Mycobacterium avium complex | - | 0.0625 µg/mL
NNC(=O)c1ccncc1 | - | My 235/80 | MIC100 | 7 d | Mycobacterium kansasii | broth dilution | >250 µM
Cc1ccn2c(C(=O)NCc3ccc(N4CCNC(=O)C4)cc3)cnc2c1 | - | - | MIC50 | - | Mycobacterium ulcerans | fluorescence | >10 µg/mL
CC[C@H]1OC(=O)[C@H](C)[C@@H](O[C@H]2C[C@@](C)(OC)[C@@H](OC(C)=O)[C@H](C)O2)[C@H](C)[C@@H](O[C@@H]2O[C@H](C)C[C@H](N(C)C)[C@H]2O)C(C)(O)C[C@@H](C)/C(=N\OCCC2CCCCC2)[C@H](C)[C@@H](O)[C@]1(C)O | - | 20039 (clarithromycin-susceptible) | MIC | - | Mycobacterium avium complex | - | 3.13 µg/mL
CCCCCCCCCCCCCCCCCCOC(=O)NC(C)(CCC(=O)O)CCC(=O)O | - | AAy-P-1 | MIC | - | Mycobacterium abscessus | - | 18 µg/mL
CC[C@H]1OC(=O)[C@H](C)[C@@H](O[C@H]2C[C@@](C)(OC)[C@@H](OC(C)=O)[C@H](C)O2)[C@H](C)[C@@H](O[C@@H]2O[C@H](C)C[C@H](N(C)C)[C@H]2OC(=O)NNCc2ccncc2)C(C)(O)C[C@@H](C)/C(=N\OCCCC2CCCCC2)[C@H](C)[C@@H](O)[C@]1(C)O | - | 20039 (clarithromycin-susceptible) | MIC | - | Mycobacterium avium complex | - | 0.78 µg/mL
O=c1oc2ccc(F)cc2c(=S)n1-c1cccc(Cl)c1 | - | 6509/96 | MIC | 14 d | Mycobacterium kansasii | - | 0.5 µM
CCCCCCCCC(CCCCCCCC)NC(=O)NC(CCC(=O)O)(CCC(=O)O)CCC(=O)O | - | AAy-P-1 | MIC | - | Mycobacterium abscessus | - | 108 µg/mL
CO[C@@]1(NC(=O)C2SC(=C(C(N)=O)C(=O)[O-])S2)C(=O)N2C(C(=O)[O-])=C(CSc3nnnn3C)CS[C@@H]21 | - | 1045 | MIC | - | Mycobacterium fortuitum | - | 50 µg/mL
CC[C@H]1OC(=O)[C@H](C)[C@@H](O[C@H]2C[C@@](C)(OC)[C@@H](OC(C)=O)[C@H](C)O2)[C@H](C)[C@@H](O[C@@H]2O[C@H](C)C[C@H](N(C)C)[C@H]2OC(=O)NNCc2ccccc2)C(C)(O)C[C@@H](C)/C(=N\OCCCC2CCCCC2)[C@H](C)[C@@H](O)[C@]1(C)O | - | 20092 (clarithromycin-resistant) | MIC | - | Mycobacterium avium complex | - | 0.78 µg/mL
CCOc1ccc(N2CCN(c3ccc(CNC(=O)c4c(CC)nc5cc(F)ccn45)cc3F)C[C@@H]2C)cn1.Cl | 0.012 µM | - | inhibition | - | Mycobacterium avium | fluorescence | 85%
Cc1ccc(-n2c(=S)oc3ccc(C)cc3c2=S)cc1 | - | 6509/96 | MIC | 21 d | Mycobacterium kansasii | - | 2 µM
CO[C@@]1(NC(=O)Cc2ccccc2)C(=O)N2C(C(=O)O)=C(COC(C)=O)CSC21 | - | 1045 | MIC | - | Mycobacterium fortuitum | - | >100 µg/mL
O=C(NCc1ccc(N2CCCC2)nc1)c1c(Cl)nc2ccccn12 | - | - | MIC50 | - | Mycobacterium ulcerans | fluorescence | 1–10 µg/mL
CC[C@H]1OC(=O)[C@H](C)[C@@H](O[C@H]2C[C@@](C)(OC)[C@@H](OC(C)=O)[C@H](C)O2)[C@H](C)[C@@H](O[C@@H]2O[C@H](C)C[C@H](N(C)C)[C@H]2OC(=O)NNCc2cccc([N+](=O)[O-])c2)C(C)(O)C[C@@H](C)/C(=N\OCCCC2CCCCC2)[C@H](C)[C@@H](O)[C@]1(C)O | - | 20092 (clarithromycin-resistant) | MIC | - | Mycobacterium avium complex | - | 0.78 µg/mL
COc1ccc(NC(=O)NNC(=O)c2ccncc2)cc1 | - | My 6509/96 | MIC100 | 14 d | Mycobacterium kansasii | broth dilution | >125 µM
C[C@@H](O)[C@H]1C(=O)N2C(C(=O)O)=C(SCCN=CN)C[C@H]12 | - | 1059 | MIC | - | Mycobacterium fortuitum | - | 12.5 µg/mL
CCOc1ccc(-c2n[nH]c(C(F)(F)F)c2-c2ccccc2OC)c(O)c1 | - | - | MIC | - | Mycobacterium marinum | visual reading | 25 µg/mL
CCCCCc1ccc(NC(=O)NNC(=O)c2ccncc2)cc1 | - | My 235/80 | MIC100 | 7 d | Mycobacterium kansasii | broth dilution | 32 µM
COc1ccn2nc(C)c(C(=O)NCc3ccc(N4CCN(c5ccc(OC(F)(F)F)cc5)[C@@H](C)C4)c(F)c3F)c2c1.Cl | 0.049 µM | - | inhibition | - | Mycobacterium avium | fluorescence | 85%
CC[C@H]1OC(=O)[C@H](C)[C@@H](OC2C[C@@](C)(OC)[C@@H](O)[C@H](C)O2)[C@H](C)[C@@H](O[C@@H]2O[C@H](C)C[C@H](N(C)C)[C@H]2O)C(C)(O)C[C@@H](C)/C(=N\OCCCCc2ccccc2)[C@H](C)[C@@H](O)[C@]1(C)O | - | 20096 (clarithromycin-resistant) | MIC | - | Mycobacterium avium complex | - | 3.13 µg/mL
CO[C@@]1(NC(=O)CSCC#N)C(=O)N2C(C(=O)O)=C(CSc3nnnn3C)CS[C@@H]21 | - | 1260 | MIC | - | Mycobacterium fortuitum | - | 3.12 µg/mL
Cc1ccn2c(C(=O)NCc3ccc(N4C[C@H](C)N(c5ccc(OC(F)(F)F)cc5)C[C@H]4C)c(F)c3)c(C)nc2c1 | 0.18 µM | - | inhibition | - | Mycobacterium avium | fluorescence | 85%
Nc1ccc(S(=O)(=O)c2ccc(N)cc2)cc1 | - | DW1 | MIC | - | Mycobacterium avium complex | - | 32 µg/mL
CCCCNNC(=O)O[C@H]1[C@H](O[C@@H]2[C@@H](C)[C@H](O[C@H]3C[C@@](C)(OC)[C@@H](OC(C)=O)[C@H](C)O3)[C@@H](C)C(=O)O[C@H](CC)[C@@](C)(O)[C@H](O)[C@@H](C)/C(=N/OCCCC3CCCCC3)[C@H](C)CC2(C)O)O[C@H](C)C[C@@H]1N(C)C | - | 20039 (clarithromycin-susceptible) | MIC | - | Mycobacterium avium complex | - | 0.78 µg/mL

4 of the rows above, restated:

compound	dose	strain	measure	setting	agent	method	value
O=C(NCc1ccc(N2CCSCC2)cc1)c1c(Cl)nc2ccccn12	-	-	MIC50	-	Mycobacterium ulcerans	fluorescence	0.1–1 µg/mL
CC[C@H]1OC(=O)[C@H](C)[C@@H](O[C@H]2C[C@@](C)(OC)[C@@H](O)[C@H](C)O2)[C@H](C)[C@@H](O[C@@H]2O[C@H](C)C[C@H](N(C)C)[C@H]2O)[C@](C)(OC)C[C@@H](C)C(=O)[C@H](C)[C@@H](O)[C@]1(C)O	-	N-259 (HIV-)	MIC	-	Mycobacterium avium complex	-	1 µg/mL
Cc1ccc(-n2c(=S)oc3ccc(F)cc3c2=S)cc1	-	6509/96	MIC	14 d	Mycobacterium kansasii	-	2 µM
CC[C@H]1OC(=O)[C@H](C)[C@@H](OC2C[C@@](C)(OC)[C@@H](OC(=O)c3ccccc3)[C@H](C)O2)[C@H](C)[C@@H](O[C@@H]2O[C@H](C)C[C@H](N(C)C)[C@H]2O)C(C)(O)C[C@@H](C)/C(=N\OCCCOc2ccccc2)[C@H](C)[C@@H](O)[C@]1(C)O	-	20092 (clarithromycin-resistant)	MIC	-	Mycobacterium avium complex	-	1.56 µg/mL

MIC50, MIC90 and the like: level of inhibition, or share of isolates inhibited. Rows are shuffled and stem from different studies. Inhibition is in % at the dose shown (toxicity tests: loss of growth or viability). Blank or dashed fields: not listed here.